Paper PMC6018088
For part of these data: Where a protein sequence is shown, tags need not be part of it.

Legend:
Fur = target: T1, Fur (UniProt P0C6C8); assay: DNase I footprinting; settings: DNase I footprinting with FAM/HEX-labeled probes and RQ1 DNase I; pH and temperature not given (cites earlier work); recombinant protein; residues 1-150; protein details: 6xHis (pET28a); label: FAM or HEX 5' (M13 primers); probe letters rebuilt from the primers and the genome
T1 sequence (looked up): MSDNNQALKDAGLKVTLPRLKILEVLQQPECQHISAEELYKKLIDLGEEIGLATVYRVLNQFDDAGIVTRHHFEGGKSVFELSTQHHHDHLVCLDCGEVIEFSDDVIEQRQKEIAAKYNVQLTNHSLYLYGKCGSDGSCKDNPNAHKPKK

HapR = HapR (UniProt Q4F6W7); assay: DNase I footprinting; settings: […]; […], pH and temperature not given ([…]; recombinant protein; residues 1-203; protein details: 6xHis (pET28a); label: FAM or HEX 5' (M13 primers); probe letters rebuilt from the primers and the genome

CAGGAAACAGCTATGACGATGTCGTAATTCGGTTGAGTGATCATGATGGGTCGAAATGGTGAAAGCGGAGAAAACTCGCTGATAATGATAAAAAACTAATCAAGAACGCTAGTTTATTGTTTTCACTTATCATTGGGTAGTGATCAAAGACTTAACAGTGATAATTATTCACAAAAATAAGTTAGTAAAATCAGCATCACAGACATTTTTTACTGCTGGGTGCTGGATCATGCGTTCAGCGAAGATGACATAATACTCCTCTTTAATCTCATCCACATGTCCGATGAGTTTCAATGATGATTCCGCATCCACTTCTGAGACATAAAAAGAGGGAGCCATAAACACGACTGGCCGTCGTTTTAC (double strand) [hlyU promoter fragment]
binding result (Fur): binds | binding result (HapR): binds

CAGGAAACAGCTATGACGAGGCAAATCACTGAACAAAGTGCTCTTACCAGTTACAATAATTTAACAACGATAGCATCATTATTAGGCAGCAACCATGATGCATTGATTACTGCTGCCTTACACGAAGTCTAGGGCACTCAGGGTATGAATAAAACACTCTCTAAGCTTTATCAACCGAATATTGTGAAGTGGGCACTAAACTCTTGGCCTCCATTTTGGGGCGCTGGGATCCATATCGAATCGATCAGTGCGGATTTTCGCGAAGTCCGCATCCGCTTGAAATTACGCTGGTGGAATAAAAACGCCAACCGGACTCAATACGGCGGCAGCATTTTCTCACTGACGGATCCCGTTTATGCCTTGATGCACTGGCCGTCGTTTTAC (double strand) [fur promoter fragment]
binding result (HapR): binds
